Our source for the inhibition values is PubChem BioAssay AID588549 (Broad Institute, 2011).

The entries are a selection whose mix differs from that of the whole data set. Active and inactive are the calls of the source. Rule as the data show it: active = inhibition above about 8.5% (passing the limit was not always enough); inconclusive = no clear call, values can overlap the other calls.

A word on the inhibition: it is the drop in the measured response relative to a control, in per cent.

The assay relates to Mycobacterium tuberculosis FadD28 fatty-acid-AMP ligase. The assay can be described thus: inhibitors of FadD28 bisubstrate probe binding, primary screen, biochemical, fluorescence polarization, single point (AID 588549). The note with it: at 12.5 µM, hits give high values. In general terms: Fluorescence polarisation rises when a labelled molecule tumbles more slowly, as on binding a larger partner.
As to `O=C(NCC1(N2CCCCC2)CCCCC1)c1cccc(C(F)(F)F)c1`, the inhibition was inactive: -3.24%. The figure for `O=C(NCC1(N2CCCCC2)CCCCC1)c1ccc(F)cc1` is inactive: -4.25%. `O=P1(N(CCCl)CCCl)SCCCS1`: the inhibition is inactive: -1.01%. Then `CCCCn1nnnc1C(c1cc2ccccc2o1)N1CCC(n2c(=O)[nH]c3ccccc32)CC1` (stereo not given), with inactive: -3.28%; and `CCCCOc1ccc(C(=O)NCC2(N3CCOCC3)CCCCC2)cc1`, with inactive: -1.4%. The figure for `COc1ccc(NC2CCN(CCc3ccccc3)CC2)c(OC)c1` is inactive: 0.586%; for `CCOC(=O)N1CCC(Nc2ccc(F)cc2)CC1` it is inactive: 0.313%. Consider `CCOc1ccc(C)cc1CN(CCCl)CCCl`, for which the inhibition is inactive: -0.149%.

For `CC(C)(C)n1nnnc1C(c1ccccc1)N1CCC(n2c(=O)[nH]c3ccccc32)CC1` (stereo not given), the inhibition was inactive: -1.65%.

As for `O=C1CCN(Cc2ccccc2)CC1`, the inhibition was inactive: -0.062%. The figure for `O=c1[nH]c2ccccc2n1C1CCN(C(c2cccc3ccccc23)c2nnnn2C2CCCC2)CC1` (stereo not given) is inactive: -2.04%; for `CCOC(=O)N1CCC(Nc2cccc(C)c2)CC1` it is inactive: -2.68%. Then `O=c1[nH]c2ccccc2n1C1CCN(C(c2ccccc2)c2nnnn2C2CCCCC2)CC1` (stereo not given), with inactive: -4.56%. Then `CSc1ccccc1C(=O)NCC1(N2CCCCC2)CCCCC1`, with inactive: -0.187%; and `Cc1cccc(NC2(C#N)CCN(Cc3ccccc3)CC2)c1`, with inactive: -1.19%. As for `O=C(NCC1(N2CCCCC2)CCCCC1)c1ccc(=O)[nH]c1`, the inhibition is inactive: 1.1%. The figure for `CCCCn1nnnc1C(c1cccs1)N1CCC(n2c(=O)[nH]c3ccccc32)CC1` (stereo not given) is inactive: -1.54%; for `O=C(NCC1(N2CCCCC2)CCCCC1)c1cccs1` it is inactive: -0.598%. Then `CCCCn1nnnc1C(CC)N1CCC(n2c(=O)[nH]c3ccccc32)CC1` (stereo not given), with inactive: -0.237%. For `COc1ccc(C(=O)NCC2(N3CCCCC3)CCCCC2)cc1`, the inhibition was inactive: -1.55%. As for `CCC(c1nnnn1C1CCCC1)N1CCC(n2c(=O)[nH]c3ccccc32)CC1` (stereo not given), the inhibition is inactive: -3.88%. Regarding `CC(C)(C)OC(=O)N1CCC(N(C(=O)c2ccccc2)c2ccc(F)cc2)CC1`, the inhibition is inactive: -1.02%.

Consider `COc1ccc(C(=O)NCC2(N3CCCCC3)CCCCC2)c(OC)c1OC`, for which the inhibition is inactive: -2.49%.

As to `CCOC(=O)N1CCC(Nc2ccc(OC)cc2)CC1`, the inhibition was inactive: -2.82%. In the case of `CCCCn1nnnc1C(c1ccc(OC)cc1)N1CCC(n2c(=O)[nH]c3ccccc32)CC1` (stereo not given), the inhibition was inactive: 0.739%. The figure for `O=C(OC1CN2CCC1CC2)C1c2ccccc2Oc2ccccc21` (stereo not given) is inactive: -5%; for `O=c1[nH]c2ccccc2n1C1CCN(C(c2cc3ccccc3o2)c2nnnn2C2CCCCC2)CC1` (stereo not given) it is inactive: -0.962%. Then `N#CC1(Nc2ccccc2)CCN(Cc2ccccc2)CC1`, with inactive: -2.64%. The figure for `O=C(NCC1(N2CCCCC2)CCCCC1)c1ccc(Cl)s1` is inactive: -2.64%; for `COc1ccc(Cl)cc1C(=O)NCC1(N2CCOCC2)CCCCC1` it is inactive: -0.247%; for `O=C(NCC1(N2CCOCC2)CCCCC1)c1cc2ccccc2o1` it is inactive: -1.19%. With `O=c1[nH]c2ccccc2n1C1CCN(C(c2ccccc2OC(F)(F)F)c2nnnn2C2CCCCC2)CC1` (stereo not given), the inhibition was inactive: -3.11%.

With `O=C(NCC1(N2CCCCC2)CCCCC1)c1ccc(Cl)nc1`, the inhibition is inactive: 0.141%. The figure for `Cc1cc(C)cc(N(C(=O)c2ccccc2)C2CCN(C(=O)OC(C)(C)C)CC2)c1` is inactive: -1.98%; for `CCCOc1ccc(C(=O)NCC2(N(C)C)CCCCC2)cc1` it is inactive: -4.34%; for `O=c1[nH]c2ccccc2n1C1CCN(C(c2cc3ccccc3o2)c2nnnn2C2CCCC2)CC1` (stereo not given) it is inactive: -2.33%. Then `CC(C)(C)OC(=O)N1CCC(Nc2ccccc2)CC1`, with inactive: -1.1%. The figure for `O=C(O)C1(Nc2ccccc2)CCN(Cc2ccccc2)CC1` is inactive: -0.768%.

As to `CCOc1ncccc1C(=O)NCC1(N2CCOCC2)CCCCC1`, the inhibition is inactive: -1.63%. In the case of `CN1CCC(Nc2ccc(F)c(Cl)c2)CC1`, the inhibition was inactive: -0.819%. For the compound `CN1CCC(Nc2ccc(Cl)cc2)CC1`, the inhibition was inactive: 1.15%.

For `CCC(CO)(C(=O)OC1CN2CCC1CC2)c1ccccc1` (stereo not given), the inhibition is inactive: -1.43%.

In the case of `COc1cccc(C(c2nnnn2C2CCCC2)N2CCC(n3c(=O)[nH]c4ccccc43)CC2)c1OC` (stereo not given), the inhibition was inactive: -3.28%.

With `COc1cc(OC)cc(C(=O)NCC2(N3CCOCC3)CCCCC2)c1`, the inhibition is inactive: -3.86%. For the compound `COc1cccc(C(=O)N(c2cc(C)cc(C)c2)C2CCN(C(=O)OC(C)(C)C)CC2)c1`, the inhibition was inactive: -1.55%. As to `Cc1ccc(NC2(C#N)CCN(Cc3ccccc3)CC2)cc1`, the inhibition is inactive: -1.09%. The figure for `Cc1ccc(C(=O)NCC2(N3CCCCC3)CCCCC2)o1` is inactive: -3.8%; for `Fc1ccccc1NC1CCN(Cc2ccccc2)CC1` it is inactive: 0.461%.

On to `O=c1[nH]c2ccccc2n1C1CCN(C(c2ccnc3ccccc23)c2nnnn2C2CCCCC2)CC1` (stereo not given), for which the inhibition is inactive: -1.92%. Then `COc1cc(OC)cc(C(=O)NCC2(N3CCCCC3)CCCCC2)c1`, with inactive: 0.354%.

With `CC(=O)N(c1ccccc1)C1CCNCC1`, the inhibition was inactive: -1.23%. As to `COc1cccc(C(c2nnnn2C2CCCCC2)N2CCC(n3c(=O)[nH]c4ccccc43)CC2)c1OC` (stereo not given), the inhibition was inactive: -5.3%.

For `CCC(c1nnnn1C1CCCCC1)N1CCC(n2c(=O)[nH]c3ccccc32)CC1` (stereo not given), the inhibition is inactive: -2.41%. As to `O=C(NCC1(N2CCCCC2)CCCCC1)c1ccco1`, the inhibition is inactive: -1.76%. The figure for `Cn1c(=O)[nH]cc(N(CCCl)CCCl)c1=O` is inactive: -1.97%; for `CN(C)c1ccc(C(=O)NCC2(N3CCCCC3)CCCCC2)cc1` it is inactive: 0.134%; for `Cc1ccccc1NC1(C#N)CCN(Cc2ccccc2)CC1` it is inactive: -1.36%. Consider `CC(C)(C)n1nnnc1C(c1ccnc2ccccc12)N1CCC(n2c(=O)[nH]c3ccccc32)CC1` (stereo not given), for which the inhibition is inactive: -1.19%.

With `CCN1CCC(Nc2cccc(F)c2)CC1`, the inhibition is inactive: 1.27%.

In the case of `COc1ccc(C(c2nnnn2C2CCCCC2)N2CCC(n3c(=O)[nH]c4ccccc43)CC2)cc1` (stereo not given), the inhibition is inactive: -6.16%. Turning to `CC(C)(C)OC(=O)N1CCC(N(C(=O)c2ccccc2)c2ccc(Cl)cc2)CC1`, the inhibition is inactive: -0.516%. The figure for `N#Cc1ccc(C(=O)NCC2(N3CCCCC3)CCCCC2)cc1` is inactive: -2.37%; for `CC(C)(C)n1nnnc1C(c1cccc2ccccc12)N1CCC(n2c(=O)[nH]c3ccccc32)CC1` (stereo not given) it is inactive: -5.02%; for `c1ccc(CN2CCC(Nc3ccccc3)CC2)cc1` it is inactive: -0.188%.

With `Cc1cc(N(CCCl)CCCl)ccc1C=O`, the inhibition is inactive: -3.45%. With `O=c1[nH]c2ccccc2n1C1CCN(C(c2ccccc2)c2nnnn2C2CCCC2)CC1` (stereo not given), the inhibition is inactive: -0.517%.

On to `CCCN1CCC(Nc2cc(OC)cc(OC)c2)CC1`, for which the inhibition was inactive: -3.83%. Then `CN(C)C1(CNC(=O)c2cccc(C#N)c2)CCCCC1`, with inactive: -1.9%; and `COc1ccc(C(=O)NCC2(N3CCOCC3)CCCCC2)cc1OC`, with inactive: -2.38%. The figure for `O=c1[nH]c2ccccc2n1C1CCN(C(c2ccnc3ccccc23)c2nnnn2C2CCCC2)CC1` (stereo not given) is inactive: -6.39%; for `O=c1[nH]c2ccccc2n1C1CCN(C(c2cccs2)c2nnnn2C2CCCCC2)CC1` (stereo not given) it is inactive: -2.07%. Then `O=C(NCC1(N2CCOCC2)CCCCC1)c1cc(Br)ccc1Cl`, with inactive: -0.46%. With `CCCCn1nnnc1C(c1ccccc1)N1CCC(n2c(=O)[nH]c3ccccc32)CC1` (stereo not given), the inhibition was inactive: -3.7%. The figure for `COc1cc(C(=O)NCC2(N3CCOCC3)CCCCC2)cc(OC)c1C` is inactive: -2.75%; for `CCCCn1nnnc1C(c1cccc(OC)c1OC)N1CCC(n2c(=O)[nH]c3ccccc32)CC1` (stereo not given) it is inactive: -1.47%; for `O=C(OC1CN2CCC1CC2)C1c2ccccc2C=Cc2ccccc21` (stereo not given) it is inactive: -1.08%.

As for `O=c1[nH]c2ccccc2n1C1CCN(C(c2cccs2)c2nnnn2C2CCCC2)CC1` (stereo not given), the inhibition is inactive: -5.23%.

Turning to `N/C(=N\O)c1c(N)no[n+]1[O-]`, the inhibition was inactive: -1.81%. The figure for `COc1cccc(C(c2nnnn2C(C)(C)C)N2CCC(n3c(=O)[nH]c4ccccc43)CC2)c1OC` (stereo not given) is inactive: -2.8%; for `CCOC(=O)N1CCC(Nc2ccc(C)cc2)CC1` it is inactive: 0.17%.
